Results of unrelated studies side by side (data: NIAID ChemDB).

Shared fields: whole-cell or culture tests; agent: Candida tropicalis

Blank or dashed fields: not listed here.

smiles	cells	tested at	read-out	setting	strain	read by	result
Fc1ccc(C(Cn2ccnc2)NC/C=C/c2ccccc2)cc1	VERO		EC50		CBS 94 CA 44 CA 14		25 µg/mL
Cc1ccc(C(=O)O/N=C(\CCn2ccnc2)c2ccccc2)cc1			MIC80			agar diffusion	0.1876 µg/mL
CCCCCCCCC(=O)OC1CCN(CC(O)(Cn2cncn2)c2ccc(F)cc2F)CC1			MIC80			broth dilution	8.615 µM
Cc1ccc(C(=O)OC(CCn2ccnc2)c2ccccc2)cc1		1000 µg	zone			agar diffusion	11 mm
CCCC(C)(C)C(=O)OC1CCN(CC(O)(Cn2cncn2)c2ccc(F)cc2F)CC1			MIC80			broth dilution	0.573 µM
c1ccc(C(c2ccccc2)n2nnc3ccccc32)cc1			MFC			broth dilution	>256 µg/mL
Clc1ccc(C(Cn2ccnc2)NC/C=C/c2ccccc2)cc1	VERO		EC50		CBS 94 CA 44 CA 14		50 µg/mL
C[C@@H]1CC[C@]2(C(=O)O)CC[C@]3(C)C(=CCC4[C@@]5(C)C[C@@H](O)[C@H](O)[C@@](C)(CO)C5CC[C@]43C)C2[C@H]1C		256 µg/mL	zone			agar diffusion	10.1 mm
O=C(CCn1ccnc1)c1cccc2ccccc12			MIC		RTCC 1095	broth dilution	64 µg/mL
Clc1ccc(C(Cn2ccnc2)NC/C=C/c2ccccc2)c(Cl)c1	VERO		EC50		CBS 94 CA 44 CA 14		12 µg/mL
O=C(OC(CCn1ccnc1)c1ccccc1)c1ccco1		1000 µg	zone			agar diffusion	17 mm
C[C@@H]1CC(=O)N(CCCCc2ccccc2)C1=O			MIC		CCC 131-2000	broth dilution / turbidity	31.3 µg/mL
C[C@@H](c1ncncc1F)[C@](O)(Cn1cncn1)c1ccc(F)cc1F			Mean MIC		38 isolates		0.1 µg/mL
CCOc1ccc2nc3cc(N=C4NC(=O)/C(=C\c5ccc([N+](=O)[O-])o5)S4)ccc3c(N)c2c1			MFC		ATCC 8302	broth dilution	333 µg/mL
C[C@H]1[C@H](O)[C@@H](C)/C=C/C=C/C=C/C=C/C=C/C=C/C=C/[C@H](O[C@@H]2O[C@H](C)[C@@H](O)[C@H](N)[C@@H]2O)C[C@@H]2O[C@](O)(C[C@@H](O)C[C@@H](O)CC[C@H](O)[C@@H](O)C[C@@H](O)CC(=O)O[C@H]1C)C[C@H](O)[C@H]2C(=O)O			MIC90		10 isolates		0.4 µg/mL
Cc1ccc(C(O)c2cccc(C(=O)CCn3ccnc3)c2)cc1			MIC		RTCC 1065	broth dilution	>64 µg/mL
CC1(C)O[C@H]2[C@H](O)[C@@H](N=[N+]=[N-])C=C(c3ccc(C=O)cc3)[C@H]2O1		7.8 µg/mL	inhibition		C 131	broth dilution / turbidity	0%
CCC(C)n1ncn(-c2ccc(N3CCN(c4ccc(OC[C@H]5CO[C@](Cn6cncn6)(c6ccc(Cl)cc6Cl)O5)cc4)CC3)cc2)c1=O			MIC80			broth dilution	0.089 µM
O=C1N[C@H](Cc2ccccc2)C(=O)N2CCC[C@H]12			MIC100		MTCC 184	broth dilution	32 µg/mL
O=C1C2=C(OC(CI)C2)C(=O)c2ccccc21			MIC		Clinical isolate	broth dilution	25.4 µg/mL
Clc1ccc(C(c2ccccc2)N2CCN(CCn3ccnc3)CC2)cc1			MFC			broth dilution	>256 µg/mL
OC(CNCCCOc1ccccc1)(Cn1cncn1)c1ccc(F)cc1F			EC80				<0.125 µg/mL
Cc1ccc(-n2cc(C(C)(C)O)nn2)cc1C		2048 µg/mL	inhibition		URM 933	broth dilution	0%
C[C@H]1[C@H](O)[C@@H](C)/C=C/C=C/C=C/C=C/C=C/C=C/C=C/[C@H](O[C@@H]2O[C@H](C)[C@@H](O)[C@H](N)[C@@H]2O)C[C@@H]2O[C@](O)(C[C@@H](O)C[C@@H](O)CC[C@H](O)[C@@H](O)C[C@@H](O)CC(=O)O[C@H]1C)C[C@H](O)[C@H]2C(=O)O		100 µg/disc	zone		Ct2	agar diffusion	22 mm
COc1cc(/C=N/NC(=O)c2ccc(NC(C)=O)cc2)ccc1O			EC50		ATCC 750	broth dilution	1530 µM
O=C(OC(CCn1ccnc1)c1ccccc1)c1ccc(C(F)(F)F)cc1		1000 µg	zone			agar diffusion	14 mm
CC(=O)Nc1ccc(C(=O)N/N=C/c2ccc(N(C)C)cc2)cc1			EC50		ATCC 750	broth dilution	770 µM
C[C@@H]1[C@H](O)[C@@H](C)/C=C/C=C/C=C/C=C/C=C/C=C/C=C/[C@H](O[C@@H]2O[C@H](C)[C@@H](O)[C@H](N)[C@@H]2O)C[C@@H]2O[C@](O)(C[C@@H](O)C[C@@H](O)[C@H](O)CC[C@@H](O)C[C@@H](O)CC(=O)O[C@H]1C)C[C@H](O)[C@H]2C(=O)O			EC50		RC-501	broth dilution	0.5 µg/mL
OC(Cn1cncn1)(Cn1cncn1)c1ccc(F)cc1F		1000 µg	zone			agar diffusion	16 mm
Clc1ccc(C(c2ccccc2)n2cnc3ccccc32)cc1			MFC			broth dilution	>256 µg/mL
C[C@H]1[C@H](O)[C@@H](C)/C=C/C=C/C=C/C=C/C=C/C=C/C=C/[C@H](O[C@@H]2O[C@H](C)[C@@H](O)[C@H](N)[C@@H]2O)C[C@@H]2O[C@](O)(C[C@@H](O)C[C@@H](O)CC[C@H](O)[C@@H](O)C[C@@H](O)CC(=O)O[C@H]1C)C[C@H](O)[C@H]2C(=O)O			MIC90		11 isolates		1 µg/mL
CC1CC(=O)N(c2ccc(F)cc2)C1=O			MIC		CCC 131-2000	broth dilution / turbidity	250 µg/mL
O=c1[nH]c(=O)c2nc(-c3ccccn3)c(-c3ccccn3)nc2[nH]1		250 mg/mL	zone				15 mm
Clc1ccc(C(Cn2ccnc2)OCc2csc3c(Cl)cccc23)c(Cl)c1			MIC90	48 h	65 isolates	absorbance	4 µg/mL
CC(C)CC1NC(=O)CC(CCCCCCCCC(C)O)OC(=O)C(CC(C)C)NC(=O)C(CC(C)C)NC(=O)C(CC(C)C)NC(=O)C(C(C)C)NC(=O)C(CC(=O)O)NC(=O)C(CC(C)C)NC1=O			MFC		MTCC 1406	visual reading	4 µg/mL
CCCCCCCCCCCCC(=O)OC1CCN(CC(O)(Cn2cncn2)c2ccc(F)cc2F)CC1			MIC80			broth dilution	1.922 µM
O=C1N[C@@H](Cc2c[nH]c3ccccc23)C(=O)N2CCC[C@@H]12		4 µg/mL	zone		MTCC 184	agar diffusion / agar	22 mm
CC(C)CC(O)C(=O)O			MFC100		D 213	broth dilution / visual reading	72000 µg/mL
OC(CCn1ccnc1)c1ccc(Br)cc1			MIC		RTCC 1095	broth dilution	>64 µg/mL
O=C(/C=C/c1ccccc1F)OC1CCN(CC(O)(Cn2cncn2)c2ccc(F)cc2F)CC1			MIC80			broth dilution	0.129 µM
Fc1ccc(C(Cn2ccnc2)NCc2ccc(-c3ccccc3)cc2)cc1	VERO		EC50		CBS 94 CA 44 CA 14		12 µg/mL
O=C(c1ccccc1)C(c1ccccc1)n1ccnc1			MFC			broth dilution	>256 µg/mL
O=C(OC(CCn1ccnc1)c1ccccc1)c1ccc(Cl)c(Cl)c1		1000 µg	zone			agar diffusion	13 mm
c1ccc(C(c2ccccc2)n2cnc3ccccc32)cc1			MIC90			agar	>256 µg/mL
CC(C)(O)c1cn(-c2ccccc2)nn1		2048 µg/mL	inhibition		URM 1150	broth dilution	0%
O=c1ncc2nc(-c3ccccn3)c(-c3ccccn3)nc2[nH]1		250 mg/mL	zone				15 mm
COc1ccc(C(c2ccc(OC)cc2)n2ccnc2)cc1			MFC			broth dilution	>256 µg/mL
CC(=O)N1CCN(c2ccc(OC[C@H]3CO[C@](Cn4ccnc4)(c4ccc(Cl)cc4Cl)O3)cc2)CC1		20 mg/mL	zone		T-1	agar diffusion / agar	18 mm
Clc1nccc2nc(-c3ccccn3)c(-c3ccccn3)nc12		250 mg/mL	zone				30 mm
C=CCc1ccc(O)c(OC)c1			MIC90		3177	turbidity	490 µg/mL
Clc1ccc(C(c2ccccc2)n2nnc3ccccc32)cc1			MFC			broth dilution	>256 µg/mL
O=C(OC(CCn1ccnc1)c1ccccc1)c1ccc(Cl)s1		1000 µg	zone			agar diffusion	14 mm
CC[C@@H]([C@H](C)O)n1ncn(-c2ccc(N3CCN(c4ccc(OC[C@@H]5CO[C@@](Cn6cncn6)(c6ccc(F)cc6F)C5)cc4)CC3)cc2)c1=O			MIC		8685	broth dilution	0.03 µg/mL
O=c1[nH]c(=S)[nH]c2nc(-c3ccccn3)c(-c3ccccn3)nc12		250 mg/mL	zone				15 mm
COc1ccc(/C=N\O)cc1			MFC			broth dilution	3310 µM
CC(C)(O)c1cn(-c2ccc3ccccc3c2)nn1		2048 µg/mL	inhibition		URM 1150	broth dilution	0%
C[C@@H]1CC(=O)N(c2ccc(F)cc2)C1=O			MIC		CCC 131-2000	broth dilution / turbidity	62.5 µg/mL
Nc1ncccc1-c1cc(Cc2ccc(COc3ccccn3)cc2)no1			MIC50			broth dilution	0.03 µg/mL

For reference, 7 entries again:

smiles	cells	tested at	read-out	setting	strain	read by	result
Clc1ccc(C(Cn2ccnc2)NC/C=C/c2ccccc2)cc1	VERO		EC50		CBS 94 CA 44 CA 14		50 µg/mL
C[C@H]1[C@H](O)[C@@H](C)/C=C/C=C/C=C/C=C/C=C/C=C/C=C/[C@H](O[C@@H]2O[C@H](C)[C@@H](O)[C@H](N)[C@@H]2O)C[C@@H]2O[C@](O)(C[C@@H](O)C[C@@H](O)CC[C@H](O)[C@@H](O)C[C@@H](O)CC(=O)O[C@H]1C)C[C@H](O)[C@H]2C(=O)O			MIC90		11 isolates		1 µg/mL
OC(CCn1ccnc1)c1ccc(Br)cc1			MIC		RTCC 1095	broth dilution	>64 µg/mL
CCCC(C)(C)C(=O)OC1CCN(CC(O)(Cn2cncn2)c2ccc(F)cc2F)CC1			MIC80			broth dilution	0.573 µM
O=C(/C=C/c1ccccc1F)OC1CCN(CC(O)(Cn2cncn2)c2ccc(F)cc2F)CC1			MIC80			broth dilution	0.129 µM
CCC(C)n1ncn(-c2ccc(N3CCN(c4ccc(OC[C@H]5CO[C@](Cn6cncn6)(c6ccc(Cl)cc6Cl)O5)cc4)CC3)cc2)c1=O			MIC80			broth dilution	0.089 µM
c1ccc(C(c2ccccc2)n2nnc3ccccc32)cc1			MFC			broth dilution	>256 µg/mL

ECn: concentration that inhibits the pathogen or its effect by n%. Zone: diameter of growth inhibition. Percent inhibition refers to the dose given; in toxicity tests it is the harm to the cells. Lines come from different laboratories, so protocols vary. A number after MIC or MFC names an inhibition level or a share of isolates.